PubChem BioAssay AID504761 – Drosophila RNAi Screening Center, 2011
Test: 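Fly genes whose silencing reduces dengue virus type 2 infection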 (primary screen). Cell system: D.Mel-2 cells from Drosophila. Knock-down reagent: long dsRNA against Drosophila genes. Treatment: infection with dengue virus type 2; dose and infection time not stated. Measured: 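Per well on two replicate plates, imaging gave the percent of cells positive for viral envelope protein, ranked by infection, and a nuclear count of cells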. Direction: infection score: higher = more virus-infected cells; cell count: higher = more cells in the well. Call rule: 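Low infection ranks in the two replicates (chance level up to 0.065) followed by a retest with a 1.5-fold or larger significant decrease, p below 0.05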. Calls: active = confirmed: knock-down lowers infection; inactive = not picked or not confirmed.
In all, the deposit lists about 22,000 reagents; this is a random part of those with a known target gene and a result. Over the whole deposit, 116 (0.52%) are marked active. 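Calls depend on retest data that are not deposited; infection was ranked per plate without normalising between plates; the unit of the infection score is not given.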 The raw values are shown without normalisation. Not all columns of the deposit are shown. Not stated in the record: the amount of reagent, the time to read-out.

How did the screen score Lsd-1 [SID104194028]?
infection score, replicate 1: 4.69; cell count, replicate 1: 6097; activity call: inactive

What is on record for Pi4KIIalpha [SID104192114]?
infection score, replicate 1: 2.25; cell count, replicate 1: 7124; activity call: inactive

For Pi4KIIalpha [SID104192115], how do the results read?
infection score, replicate 1: 17.4; cell count, replicate 1: 3587; activity call: inactive

What is on record for Pi4KIIalpha [SID104207639]?
infection score, replicate 1: 9.81; cell count, replicate 1: 5716; activity call: inactive

For CG34281 [SID104194599], how do the results read?
infection score, replicate 1: 2.02; cell count, replicate 1: 5945; activity call: inactive

With CG34281 [SID104208655], what was measured?
infection score, replicate 1: 3.41; cell count, replicate 1: 6741; activity call: inactive

For sau [SID104180486], how do the results read?
infection score, replicate 1: 5.63; cell count, replicate 1: 5312; activity call: inactive

What is on record for CG32772 [SID104198198]?
infection score, replicate 1: 2.56; cell count, replicate 1: 5775; activity call: inactive

For CG32772 [SID104201841], how do the results read?
infection score, replicate 1: 3.21; cell count, replicate 1: 5911; activity call: inactive

With CAH1 [SID104207943], what does the deposit list?
cell count, replicate 1: 349; activity call: inactive

2 neighbouring reagents from above:
Pi4KIIalpha [SID104207639]: infection score, replicate 1 = 9.81; cell count, replicate 1 = 5716; activity call = inactive
CG34281 [SID104194599]: infection score, replicate 1 = 2.02; cell count, replicate 1 = 5945; activity call = inactive

The results go on:
Which result is listed for CG1137 [SID104192321]?
infection score, replicate 1: 2.89; cell count, replicate 1: 6540; activity call: inactive

Which result is listed for CG1137 [SID104207978]?
infection score, replicate 1: 20.1; cell count, replicate 1: 5383; activity call: inactive

For rumi [SID104194969], what was measured?
infection score, replicate 1: 6.36; cell count, replicate 1: 6749; activity call: inactive

With rumi [SID104208161], how do the results read?
infection score, replicate 1: 18.5; cell count, replicate 1: 5263; activity call: inactive

For Caper [SID104181929], how do the results read?
infection score, replicate 1: 8.39; cell count, replicate 1: 5710; activity call: inactive

What did the screen give for Rtnl1 [SID104180643]?
infection score, replicate 1: 1.5; cell count, replicate 1: 6342; activity call: inactive

What did the screen give for Rtnl1 [SID104182476]?
infection score, replicate 1: 2.9; cell count, replicate 1: 5936; activity call: inactive

For Rtnl1 [SID104182914], what was measured?
infection score, replicate 1: 2.06; cell count, replicate 1: 5782; activity call: inactive

What did the screen give for Rtnl1 [SID104201377]?
infection score, replicate 1: 2.56; cell count, replicate 1: 6247; activity call: inactive

With CCHa1-R [SID104186248], what does the deposit list?
infection score, replicate 1: 7.65; cell count, replicate 1: 6728; activity call: inactive

How did the screen score CCHa1-R [SID104186507]?
infection score, replicate 1: 11.6; cell count, replicate 1: 4625; activity call: inactive
